Measurements reported in PubChem BioAssay AID504761 (Drosophila RNAi Screening Center, 2011).

- Test: 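Genome-wide fly cell screen for genes dengue virus requires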 (primary screen)
- System: D.Mel-2 cells from Drosophila
- Reagent: long dsRNA against Drosophila genes
- Conditions: infection with dengue virus type 2; dose and infection time not stated
- Read-out: 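Cells stained for dengue envelope protein and imaged; percent of infected cells per well on duplicate plates, ranked by infection, with stained nuclei counted for cell number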
- Scale: infection score: higher = more virus-infected cells; cell count: higher = more cells in the well
- Hit rule: 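Very low infection ranking in both replicate wells (chance probability at most 0.065), then a retest showing infection dropped 1.5-fold or more at p below 0.05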
- Calls: active = confirmed: knock-down lowers infection; inactive = not picked or not confirmed
The screen tested about 22,000 reagents; below is an unselected part of those that have a named target and a result. Over the whole deposit, 116 (0.52%) got an active call. 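Calls depend on retest data that are not deposited; infection was ranked per plate without normalising between plates; the unit of the infection score is not given.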 Raw values vary from plate to plate and are shown uncorrected. Not given: the amount of reagent, the time to read-out.

target	dsRNA	infection score, replicate 1	infection score, replicate 2	cell count, replicate 1	cell count, replicate 2	activity call
rig (rigor mortis)	DRSC06053	15.1	9.78	6258	6167	inactive
rig (rigor mortis)	DRSC06400	3.24	3.12	6264	5925	inactive
DIP-zeta (Dpr-interacting protein zeta)	DRSC02203	1.35	2.18	6131	6753	inactive
DIP-zeta (Dpr-interacting protein zeta)	DRSC02204	1.1	2.04	6929	7596	inactive
DIP-zeta (Dpr-interacting protein zeta)	DRSC02205	1.3	1.75	6242	6530	inactive
MED16 (Mediator complex subunit 16)	DRSC04506	22	25.2	6221	5791	inactive
MED16 (Mediator complex subunit 16)	DRSC26633	1.48	4.72	6840	6355	inactive
veli	DRSC16276	0.96	5.91	6231	6225	inactive
veli	DRSC27872	8.17	6.49	6184	6775	inactive
bdg (bedraggled)	DRSC07136		40.2	519	5105	inactive
CG14301	DRSC14780	26.4	6.55	5525	6294	inactive
repo (reversed polarity)	DRSC23108	2.16	9.63	6531	6467	inactive
repo (reversed polarity)	DRSC26970	9.55	12.4	6063	6965	inactive

Laid out differently: results already given
{"target":"MED16 (Mediator complex subunit 16)","dsRNA":"DRSC04506","infection score, replicate 1":22,"infection score, replicate 2":25.2,"cell count, replicate 1":6221,"cell count, replicate 2":5791,"activity call":"inactive"}
{"target":"MED16 (Mediator complex subunit 16)","dsRNA":"DRSC26633","infection score, replicate 1":1.48,"infection score, replicate 2":4.72,"cell count, replicate 1":6840,"cell count, replicate 2":6355,"activity call":"inactive"}

Further entries:
target	dsRNA	infection score, replicate 1	infection score, replicate 2	cell count, replicate 1	cell count, replicate 2	activity call
gny (garnysstan)	DRSC02810	3.42	5.16	6471	6821	inactive
CG14566	DRSC11727	4.09	8.38	6527	6576	inactive
CG14566	DRSC25467	11.2	24.9	5513	5122	inactive
CG15047	DRSC19623	11.8	9.13	5712	5717	inactive
CG15047	DRSC21443	2.13	4.1	6156	6343	inactive
CG15047	DRSC27296	26.5	10.9	5512	3957	inactive
Dysb (Dysbindin)	DRSC10730	12.1	7.81	6686	6301	inactive
barr (barren)	DRSC03488	3.92	8.39	3471	2204	inactive
Lar (Leukocyte-antigen-related-like)	DRSC01707	0.99	0.15	6284	6132	inactive
Lar (Leukocyte-antigen-related-like)	DRSC03361	13	27.4	6476	5891	inactive
